Laboratory results published in patent US20100009970A1, “COMPOSITIONS AND METHODS FOR TREATMENT OF VIRAL DISEASES” (Combinatorx (Singapore) Pte. Ltd., priority 2008, published 2010).
Values joined by “and” are separate entries in the source; they are usually repeats but may differ in a detail not shown here. Equal entries are not always repeated. Structures can show the parent of a compound that is named as a salt.

System: Huh7 cells expressing a subgenomic RNA replicon of Con1 (genotype 1b) sequence origin
Conditions: ratio CC50 / IC50

In the case of `N[C@@H]1CC[C@H](c2ccc(Cl)c(Cl)c2)c2ccccc21` [(1R,4R)-Desmethyl Sertraline, (1R,4R)-4-(3,4-dichlorophenyl)-1,2,3,4-tetrahydronaphthalen-1-amine], the TI is reported as 0.93.
`CN(C1CC1)[C@H]1CC[C@@H](c2ccc(Cl)c(Cl)c2)c2ccccc21` [N-Cyclopropyl Sertraline, (1S,4S)—N-cyclopropyl-4-(3,4-dichlorophenyl)-N-methyl-1,2,3,4-tetrahydronaphthalen-1-amine] showed a Therapeutic index of over 3.4.
`CNC1CCC(c2ccc(C(F)(F)F)cc2)c2ccccc21` (stereo not shown) [Sertraline B-Ring para-Trifluoromethane, N-methyl-4-(4-(trifluoromethyl)phenyl)-1,2,3,4-tetrahydronaphthalen-1-amine] was tested, and the TI was 1.06 and the Therapeutic index was 1.06.
With `CN(C)Cc1ccccc1Oc1ccc(Br)cc1` [Compound 55, (2-(4-bromophenoxy)phenyl)-N,N-dimethylmethanamine] the TI was over 1.67.
`CN[C@H]1CC[C@@H](c2ccc(Cl)c(Cl)c2)c2ccc(C(=O)Nc3ccccc3)cc21` [Sertraline A-Ring Benzamide, (5S,8S)-5-(3,4-dichlorophenyl)-8-(methylamino)-N-phenyl-5,6,7,8-tetrahydronaphthalene-2-carboxamide] gave a Therapeutic index of 1.42.
`CNCc1ccccc1Oc1ccc(SC)c(C)c1` [Compound 30, N-methyl-1-(2-(3-methyl-4-(methylthio)phenoxy)phenyl)methanamine] gave a TI of 2.
Compound `CN[C@H]1CC[C@@H](c2ccc(Cl)c(Cl)c2)c2ccc(C(=O)NC3CC3)cc21` [(5S,8S)—N-cyclopropyl-5-(3,4-dichlorophenyl)-8-(methylamino)-5,6,7,8-tetrahydronaphthalene-2-carboxamide] has a Therapeutic index of 3.22.
Work on `CSc1ccc(Oc2ccc(C(N)=O)cc2CN(C)C)cc1C` [Compound 10, 3-((dimethylamino)methyl)-4-(3-methyl-4-(methylthio)phenoxy)benzamide] yielded a TI of over 1.86.
Compound `CN[C@H]1CC[C@@H](c2ccc(Cl)c(Cl)c2)c2ccc(NC(=O)c3ccccc3)cc21` [Sertraline A-Ring Reverse Benzamide, N-((5S,8S)-5-(3,4-dichlorophenyl)-8-(methylamino)-5,6,7,8-tetrahydronaphthalen-2-yl)benzamide] has a Therapeutic index of 1.25.
`CSc1ccc(Oc2ccc(Br)cc2CN(C)C)cc1C` [Compound 9, (5-bromo-2-(3-methyl-4-(methylthio)phenoxy)phenyl)-N,N-dimethylmethanamine] showed a TI of 3.44.
Work on `OC1CC[C@@H](c2ccc(Cl)c(Cl)c2)c2ccccc21` (stereo partly drawn) [Alcohol Sertraline-P1, (S)-4-(3,4-dichlorophenyl)-1,2,3,4-tetrahydronaphthalen-1-ol] yielded a Therapeutic index of over 2.04.
`CN[C@H]1CC[C@@H](c2ccc(Cl)c(Cl)c2)c2ccc(I)cc21` [Sertraline Iodide, (1S,4S)-4-(3,4-dichlorophenyl)-7-iodo-N-methyl-1,2,3,4-tetrahydronaphthalen-1-amine] was tested, and the TI was 1.34 and the Therapeutic index was 1.34.
`CSc1ccc(Oc2ccc(C#N)cc2CN(C)C)cc1C` [Compound 7, 3-((dimethylamino)methyl)-4-(3-methyl-4-(methylthio)phenoxy)benzonitrile] gave a TI of over 7.8.
In the case of `CSc1ccc(Oc2ccccc2CN(C)C)cc1C` [Compound 8, N,N-dimethyl-1-(2-(3-methyl-4-(methylthio)phenoxy)phenyl)methanamine], the TI is reported as 2.95.
For `CN[C@H]1CC[C@@H](c2ccc(Cl)c(Cl)c2)c2ccc(NS(=O)(=O)c3ccccc3)cc21` [N-((5S,8S)-5-(3,4-dichlorophenyl)-8-(methylamino)-5,6,7,8-tetrahydronaphthalen-2-yl)benzenesulfonamide], the Therapeutic index was 1.12 and 1.13.
With `CNCc1ccccc1Oc1ccc(SC)cc1` [Compound 33, N-methyl(2-(4-(methylthio)phenoxy)phenyl)methanamine] the TI was over 1.65.
In the case of `CNCc1cc(Br)ccc1Oc1ccc(SC)c(C)c1` [Compound 31, (5-bromo-2-(3-methyl-4-(methylthio)phenoxy)phenyl)-N-methylmethanamine], the TI is reported as 1.8.
Compound `CN[C@H]1CC[C@@H](c2ccc(Cl)c(Cl)c2)c2ccc(C(=O)Nc3ccccn3)cc21` [Sertraline A-ring Pyridine Carboxamide, (5S,8S)-5-(3,4-dichlorophenyl)-8-(methylamino)-N-(pyridin-2-yl)-5,6,7,8-tetrahydronaphthalene-2-carboxamide] has a Therapeutic index of 1.59.
For `CSc1ccc(Oc2ccc(S(N)(=O)=O)cc2CO)cc1C` [Compound 47, 3-(hydroxymethyl)-4-(3-methyl-4-(methylthio)phenoxy)benzenesulfonamide], the TI was over 2.76 and the Therapeutic index was over 2.76.
`CN[C@H]1CC[C@@H](c2ccc(Cl)c(Cl)c2)c2ccc(S(=O)(=O)N(C)C)cc21` [Sertraline N,N-dimethylsulfonamide, (5S,8S)-5-(3,4-dichlorophenyl)-N,N-dimethyl-8-(methylamino)-5,6,7,8-tetrahydronaphthalene-2-sulfonamide] was tested, and the TI was 1.33 and the Therapeutic index was 1.33.
Compound `CSc1ccc(Oc2ccc(N)cc2CN(C)C)cc1C` [Compound 53, 3-((dimethylamino)methyl)-4-(3-methyl-4-(methylthio)phenoxy)aniline] has a TI of over 2.21.
`O=C1CC[C@@H](c2ccc(Cl)c(Cl)c2)c2ccccc21` [4S-Sertraline Ketone, (S)-4-(3,4-dichlorophenyl)-3,4-dihydronaphthalen-1(2H)-one] gave a Therapeutic index of over 1.54.
With `CN[C@H]1CC[C@@H](c2ccc(Cl)c(Cl)c2)c2ccc(C#N)cc21` [Sertraline Nitrile, (5S,8S)-5-(3,4-dichlorophenyl)-8-(methylamino)-5,6,7,8-tetrahydronaphthalene-2-carbonitrile] the TI was 3.08 and the Therapeutic index was 3.08.
`CN[C@H]1CC[C@@H](c2ccc(Cl)c(Cl)c2)c2ccccc21` [Sertraline HCL, Sertraline HCl, reference compound] gave a TI of 2.55.
For `CSc1ccc(Oc2ccc(S(=O)(=O)NCc3ccccc3)cc2CN(C)C)cc1C` [Compound 14, N-benzyl-3-((dimethylamino)methyl)-4-(3-methyl-4-(methylthio)phenoxy)benzenesulfonamide], the TI was 1.48.
Work on `CC(=O)N(C)c1ccc2c(c1)[C@@H](N(C)C)CC[C@H]2c1ccc(Cl)c(Cl)c1` yielded a Therapeutic index of 3.86.
`CN[C@H]1CC[C@@H](c2ccc(Cl)c(Cl)c2)c2ccc([N+](=O)[O-])cc21` [Nitro Sertraline, (1S,4S)-4-(3,4-dichlorophenyl)-N-methyl-7-nitro-1,2,3,4-tetrahydronaphthalen-1-amine] was tested, and the TI was 1.24 and the Therapeutic index was 1.24.
For `CN[C@H]1CC[C@@H](c2ccc(Cl)c(Cl)c2)c2ccc(NC(=O)C3CCCC3)cc21` [N-((5S,8S)-5-(3,4-dichlorophenyl)-8-(methylamino)-5,6,7,8-tetrahydronaphthalen-2-yl)cyclopentanecarboxamide], the Therapeutic index was 1.74.
For `CN[C@H]1CC[C@@H](c2ccc(Cl)c(Cl)c2)c2ccc(N)cc21` [Sertraline Aniline, (1S,4S)-4-(3,4-dichlorophenyl)-N1-methyl-1,2,3,4-tetrahydronaphthalene-1,7-diamine], the TI was 1.45 and the Therapeutic index was 1.45.
Work on `CNCc1cc(Br)ccc1Oc1cccc(OC)c1` [Compound 37, (5-bromo-2-(3-methoxyphenoxy)phenyl)-N-methylmethanamine] yielded a TI of 1.69.
Compound `CNCc1ccccc1Oc1ccc(C(F)(F)F)cc1` [Compound 39, N-methyl-1-(2-(4-(trifluoromethyl)phenoxy)phenyl)methanamine] has a TI of over 1.3.
`CSc1ccc(Oc2ccc(S(N)(=O)=O)cc2CN(C)C)cc1` [Compound 46, 3-((dimethylamino)methyl)-4-(4-(methylthio)phenoxy)benzenesulfonamide] showed a TI of over 1.90 and a Therapeutic index of over 1.90.
Work on `CN[C@H]1CC[C@@H](c2ccc(Cl)c(Cl)c2)c2ccc(S(=O)(=O)NC)cc21` [Sertraline Sulfonamide, (5S,8S)-5-(3,4-dichlorophenyl)-N-methyl-8-(methylamino)-5,6,7,8-tetrahydronaphthalene-2-sulfonamide] yielded a TI of 1.9 and a Therapeutic index of 1.9.
Compound `CSc1ccc(Oc2ccc(Br)cc2CN(C)C)cc1` [Compound 41, 1-(5-bromo-2-(4-(methylthio)phenoxy)phenyl)-N,N-dimethylmethanamine] has a TI of over 1.94.
`CSc1ccc(Oc2ccc(S(=O)(=O)Nc3ccccc3)cc2CN(C)C)cc1C` [Compound 49, 3-((dimethylamino)methyl)-4-(3-methyl-4-(methylthio)phenoxy)-N-phenylbenzenesulfonamide] showed a TI of 1.65.
For `CN(CCO)[C@H]1CC[C@@H](c2ccc(Cl)c(Cl)c2)c2ccccc21` [N-Ethanol Sertraline, 2-(((1S,4S)-4-(3,4-dichlorophenyl)-1,2,3,4-tetrahydronaphthalen-1-yl)(methyl)amino)ethanol], the Therapeutic index was 6.38.
Compound `CNCc1cc([N+](=O)[O-])ccc1Oc1ccc(SC)c(C)c1` [Compound 50, N-methyl-1-(2-(3-methyl-4-(methylthio)phenoxy)-5-nitrophenyl)methanamine] has a TI of 4.32.
`CNCc1cc(S(N)(=O)=O)ccc1Oc1ccc(SC)cc1` [Compound 43, 3-((methylamino)methyl)-4-(4-(methylthio)phenoxy)benzenesulfonamide] showed a TI of over 1.53.
With `CNC(=O)c1ccc2c(c1)[C@@H](NC)CC[C@H]2c1ccc(Cl)c(Cl)c1` [Sertraline A-Ring Methyl Carboxamide, (5S,8S)-5-(3,4-dichlorophenyl)-N-methyl-8-(methylamino)-5,6,7,8-tetrahydronaphthalene-2-carboxamide] the Therapeutic index was 3.93.
For `CNCc1ccccc1Oc1ccc(Br)cc1` [Compound 32], the TI was over 1.60.
`CN(C)[C@H]1CC[C@@H](c2ccc(Cl)c(Cl)c2)c2ccccc21` [N,N-Dimethyl Sertraline, (1S,4S)-4-(3,4-dichlorophenyl)-N,N-dimethyl-1,2,3,4-tetrahydronaphthalen-1-amine] was tested, and the TI was 13.83 and the Therapeutic index was 10.6.
`CN[C@H]1CC[C@@H](c2ccc(Cl)c(Cl)c2)c2ccc(CS(C)(=O)=O)cc21` [(1S,4S)-4-(3,4-dichlorophenyl)-N-methyl-7-(methylsulfonylmethyl)-1,2,3,4-tetrahydronaphthalen-1-amine] was tested, and the Therapeutic index was 7.72.
